The entries are a selection whose mix differs from that of the whole data set. Results filed as inconclusive are left out. Active and inactive are the calls of the source. No stated cut-off is given here; in the data, active means inhibition above about 35% (passing the limit was not always enough); inconclusive means no clear call, values can overlap the other calls.

In this assay the test system is Botulinum neurotoxin type F light chain protease (Clostridium botulinum). Put plainly: BoNT/F light chain protease inhibitors, primary screen, biochemical, flow cytometry, MLPCN library (AID 588497). Further: plate controls were buffer without enzyme for full effect and enzyme alone for no effect. Particulars: Multiplex microsphere protease cleavage assay, at 10 µM, stronger effect = higher value.
`CC(C)(C)OC(=O)N1CCC(Nc2ccccc2)CC1`: the inhibition is inactive: -12.3%.

Take `O=C(O)C1(Nc2ccccc2)CCN(Cc2ccccc2)CC1`: the inhibition is inactive: -6.4%.

Take `NN(c1ccccc1)C1CCN(CCc2ccccc2)CC1`: the inhibition is inactive: -15.2%.

Turning to `O=c1[nH]c2ccccc2n1C1CCN(C(c2cc3ccccc3o2)c2nnnn2C2CCCC2)CC1` (stereo unspecified), the inhibition is inactive: -13.4%.

As for `CCCOc1ccc(C(=O)NCC2(N(C)C)CCCCC2)cc1`, the inhibition is inactive: -1.8%.

Consider `CCOc1ncccc1C(=O)NCC1(N2CCOCC2)CCCCC1`, for which the inhibition is inactive: -2.6%.

Regarding `CN1CCC(Nc2ccc(F)c(Cl)c2)CC1`, the inhibition was active: 37.6%.

On to `CN1CCC(Nc2ccc(Cl)cc2)CC1`, for which the inhibition is inactive: -17.4%.

Take `COc1cccc(C(c2nnnn2C2CCCC2)N2CCC(n3c(=O)[nH]c4ccccc43)CC2)c1OC` (stereo unspecified): the inhibition is inactive: 0.7%.

Turning to `COc1cc(OC)cc(C(=O)NCC2(N3CCOCC3)CCCCC2)c1`, the inhibition is inactive: 0.3%.

Consider `COc1cccc(C(=O)N(c2cc(C)cc(C)c2)C2CCN(C(=O)OC(C)(C)C)CC2)c1`, for which the inhibition is inactive: 10.2%.

As to `CCC(CO)(C(=O)OC1CN2CCC1CC2)c1ccccc1` (stereo unspecified), the inhibition is inactive: 6.2%.

Consider `Cc1ccc(C(=O)NCC2(N3CCCCC3)CCCCC2)o1`, for which the inhibition was inactive: 8.3%.

In the case of `Fc1ccccc1NC1CCN(Cc2ccccc2)CC1`, the inhibition was inactive: -0.5%.

`Cc1ccc(NC2(C#N)CCN(Cc3ccccc3)CC2)cc1`: the inhibition is inactive: -2%.

For the molecule `COc1cccc(C(c2nnnn2C2CCCCC2)N2CCC(n3c(=O)[nH]c4ccccc43)CC2)c1OC` (stereo unspecified), the inhibition is inactive: 0.7%.

With `CC(=O)N(c1ccccc1)C1CCNCC1`, the inhibition is inactive: 2.4%.

Turning to `CCC(c1nnnn1C1CCCCC1)N1CCC(n2c(=O)[nH]c3ccccc32)CC1` (stereo unspecified), the inhibition is inactive: 6.1%.

Take `COc1cc(OC)cc(C(=O)NCC2(N3CCCCC3)CCCCC2)c1`: the inhibition was inactive: 7.7%.

Take `O=c1[nH]c2ccccc2n1C1CCN(C(c2ccnc3ccccc23)c2nnnn2C2CCCCC2)CC1` (stereo unspecified): the inhibition was inactive: -3.2%.

As to `O=C(NCC1(N2CCCCC2)CCCCC1)c1ccco1`, the inhibition is inactive: -4%.

With `CN(C)c1ccc(C(=O)NCC2(N3CCCCC3)CCCCC2)cc1`, the inhibition was inactive: 0.4%.

For `Cn1c(=O)[nH]cc(N(CCCl)CCCl)c1=O`, the inhibition was inactive: 1.5%.

Turning to `Cc1ccccc1NC1(C#N)CCN(Cc2ccccc2)CC1`, the inhibition is inactive: 1.1%.

Take `COc1ccc(C(c2nnnn2C2CCCCC2)N2CCC(n3c(=O)[nH]c4ccccc43)CC2)cc1` (stereo unspecified): the inhibition was inactive: -1.6%.

Regarding `CCN1CCC(Nc2cccc(F)c2)CC1`, the inhibition is inactive: 9.9%.

`CC(C)(C)n1nnnc1C(c1ccnc2ccccc12)N1CCC(n2c(=O)[nH]c3ccccc32)CC1` (stereo unspecified): the inhibition was inactive: 2.9%.

As to `N#Cc1ccc(C(=O)NCC2(N3CCCCC3)CCCCC2)cc1`, the inhibition is inactive: 3.3%.

As for `CC(C)(C)OC(=O)N1CCC(N(C(=O)c2ccccc2)c2ccc(Cl)cc2)CC1`, the inhibition is inactive: -4.5%.

`CC(C)(C)n1nnnc1C(c1cccc2ccccc12)N1CCC(n2c(=O)[nH]c3ccccc32)CC1` (stereo unspecified): the inhibition is inactive: -0.6%.

For the molecule `CN(C)C1(CNC(=O)c2cccc(C#N)c2)CCCCC1`, the inhibition was inactive: -10.4%.

In the case of `c1ccc(CN2CCC(Nc3ccccc3)CC2)cc1`, the inhibition was inactive: 4.4%.

For the molecule `O=c1[nH]c2ccccc2n1C1CCN(C(c2ccccc2)c2nnnn2C2CCCC2)CC1` (stereo unspecified), the inhibition was inactive: -1.2%.

Take `CCCN1CCC(Nc2cc(OC)cc(OC)c2)CC1`: the inhibition is inactive: -106%.

For the molecule `Cc1cc(N(CCCl)CCCl)ccc1C=O`, the inhibition is inactive: -14.6%.

In the case of `O=c1[nH]c2ccccc2n1C1CCN(C(c2cccs2)c2nnnn2C2CCCCC2)CC1` (stereo unspecified), the inhibition is inactive: 0.7%.

`COc1ccc(C(=O)NCC2(N3CCOCC3)CCCCC2)cc1OC`: the inhibition was inactive: 0.8%.

Consider `O=c1[nH]c2ccccc2n1C1CCN(C(c2ccnc3ccccc23)c2nnnn2C2CCCC2)CC1` (stereo unspecified), for which the inhibition is inactive: 11.8%.

On to `CCCCn1nnnc1C(c1ccccc1)N1CCC(n2c(=O)[nH]c3ccccc32)CC1` (stereo unspecified), for which the inhibition is inactive: 6.6%.

For `COc1cc(C(=O)NCC2(N3CCOCC3)CCCCC2)cc(OC)c1C`, the inhibition was inactive: 0.8%.

As for `O=C(NCC1(N2CCOCC2)CCCCC1)c1cc(Br)ccc1Cl`, the inhibition was inactive: 6.1%.

For the molecule `O=C(OC1CN2CCC1CC2)C1c2ccccc2C=Cc2ccccc21` (stereo unspecified), the inhibition is inactive: -1.3%.

Regarding `O=c1[nH]c2ccccc2n1C1CCN(C(c2cccs2)c2nnnn2C2CCCC2)CC1` (stereo unspecified), the inhibition is inactive: -1.1%.

For the molecule `CCCCn1nnnc1C(c1cccc(OC)c1OC)N1CCC(n2c(=O)[nH]c3ccccc32)CC1` (stereo unspecified), the inhibition was inactive: 5.4%.

For `COc1cccc(C(c2nnnn2C(C)(C)C)N2CCC(n3c(=O)[nH]c4ccccc43)CC2)c1OC` (stereo unspecified), the inhibition is inactive: -29.5%.

On to `N/C(=N\O)c1c(N)no[n+]1[O-]`, for which the inhibition is inactive: -6.1%.

Take `COc1cc(OC)c(C(=O)NCC2(N(C)C)CCCCC2)cc1OC`: the inhibition was inactive: -25.8%.

Regarding `O=C(NCC1(N2CCOCC2)CCCCC1)c1cc(F)c(F)cc1Cl`, the inhibition was inactive: -5.9%.

As for `CCC(c1nnnn1C(C)(C)C)N1CCC(n2c(=O)[nH]c3ccccc32)CC1` (stereo unspecified), the inhibition was inactive: -1%.

As to `CCCCn1nnnc1C(c1ccnc2ccccc12)N1CCC(n2c(=O)[nH]c3ccccc32)CC1` (stereo unspecified), the inhibition was inactive: -6.3%.

In the case of `CC(C)c1ccc(NC2CCN(C(=O)OC(C)(C)C)CC2)cc1`, the inhibition was inactive: -7.4%.

Regarding `CCCCn1nnnc1C(c1ccccc1OC(F)(F)F)N1CCC(n2c(=O)[nH]c3ccccc32)CC1` (stereo unspecified), the inhibition is inactive: -4.6%.

Turning to `COc1ccc(CN(CCCl)CCCl)cc1Cl`, the inhibition is inactive: 2.3%.

For the molecule `CN(C)c1cccc(C(=O)NCC2(N3CCCCC3)CCCCC2)c1`, the inhibition was inactive: -0.9%.

Take `COc1ccc(C(c2nnnn2C2CCCC2)N2CCC(n3c(=O)[nH]c4ccccc43)CC2)cc1` (stereo unspecified): the inhibition was inactive: 16%.

With `Cc1ccc(C(=O)NCC2(N(C)C)CCCCC2)o1`, the inhibition was inactive: -2.3%.

Turning to `CCCOc1ccc(C(=O)NCC2(N(C)C)CCCCC2)cc1OC`, the inhibition is inactive: 0.4%.

For `CN1CCC(Nc2cccc(F)c2)CC1`, the inhibition is inactive: -2.5%.

Turning to `O=C(NCC1(N2CCCCC2)CCCCC1)c1cncc(Br)c1`, the inhibition was inactive: -3.1%.

Consider `O=c1[nH]c2ccccc2n1C1CCN(C(c2ccccc2OC(F)(F)F)c2nnnn2C2CCCC2)CC1` (stereo unspecified), for which the inhibition is inactive: -0.8%.

Consider `N#CC1(Nc2ccccc2)CCN(CCc2ccccc2)CC1`, for which the inhibition is inactive: 7.2%.

Values taken from PubChem BioAssay AID588497 (NMMLSC, 2011).
